In US10071110B2, “Phosphonate compounds” (priority 1999, dated 2018):

Tested on: HIV-1
Conditions: read-out: EC50, in HIV-1 plaque reduction assay; preliminary; HIV-1LA1 infected HT4-6C cells, 3 days (Table 5)

Q: hexadecyloxypropyl-adefovir [HDP-ADV] was tested. Which EC50 did it give?
A: The EC50 was 0.1 nM.
